Human monoclonal antibodies against the spike receptor-binding domain (heavy:light variable regions). IC50 against pseudoviruses bearing the spike of naturally observed variants; lower = stronger; >10 µg/ml means not reached at the top dose. No active / inactive call. The stated detection limit is 0.0005 µg/ml; values near or below 0.001 µg/ml lie at the floor of the assay.
Columns and labels:
Test in all cases: pseudovirus neutralization IC50; higher = weaker neutralization
[1] = molecular target: SARS-CoV-2 Omicron BA.1 spike pseudovirus
Protocol: (§1)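 Single-round VSV luciferase pseudovirus mixed with antibody dilutions for 1 h and put on Huh-7 cells for about a day; IC50 from the dose curve.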

[2] = molecular target: SARS-CoV-2 Omicron BA.2 spike pseudovirus
Protocol: as §1

[3] = molecular target: SARS-CoV-2 Omicron BA.2.75 spike pseudovirus
Protocol: as §1

[4] = molecular target: SARS-CoV-2 Omicron BA.5 spike pseudovirus
Protocol: as §1

[5] = molecular target: SARS-CoV-2 Omicron BQ.1.1 spike pseudovirus
Protocol: as §1

[6] = molecular target: SARS-CoV-2 Omicron XBB spike pseudovirus
Protocol: as §1

[7] = molecular target: SARS-CoV-2 early D614G spike pseudovirus
Protocol: as §1

B1: COV2-2841 (protein)
chain 1: QVQLQESGPGLVKPSETLSLTCTVSGGSISSYYWSWIRQPPGKGLEWIGHIYYTGSSYYNPSLKSRVTISLDTSKNQFSLKLNSVTAADTAVYYCARLRWLRGGIDFWGQGTLVIVSS
chain 2: NLMLTQPHSVSESPGKTVTISCTGSSGSIASNYVQWYQQRPGSAPTTVIYEDNQRPSGVPDRFSGSIDSSSNSASLTISGLKTEDEADYYCQSYDSNNQVFGGGTKLTVL
- pseudovirus neutralization IC50 [1]: > 10 µg/mL
- pseudovirus neutralization IC50 [2]: > 10 µg/mL
- pseudovirus neutralization IC50 [3]: > 10 µg/mL
- pseudovirus neutralization IC50 [4]: > 10 µg/mL
- pseudovirus neutralization IC50 [5]: > 10 µg/mL
- pseudovirus neutralization IC50 [6]: > 10 µg/mL
- pseudovirus neutralization IC50 [7]: 0.966 µg/mL

B2: BD56-1702 (protein)
chain 1: EVQLVQSGAEVKKPGESLKISCKGSGYSFTSYWIGWVRQMPGKGLEWMGIIYPGDSDTRYSPSFQGQVTISADKSISTAYLQWSSLKASDTAMYFCARHSSDGVHLRSLRDYFFMDVWGQGTTVTVSS
chain 2: DIQMTQSPSSLSASVGDRVTITCRASQSISVYVNWYQQKPGKAPKLLIYAASSLQSGVPSRFSGSGSGTDFTLTISSLQPEDFATYYCQQSYSTRQLTFGGGTNVEIK
- pseudovirus neutralization IC50 [1]: > 10 µg/mL
- pseudovirus neutralization IC50 [2]: > 10 µg/mL
- pseudovirus neutralization IC50 [3]: > 10 µg/mL
- pseudovirus neutralization IC50 [4]: > 10 µg/mL
- pseudovirus neutralization IC50 [5]: > 10 µg/mL
- pseudovirus neutralization IC50 [6]: > 10 µg/mL
- pseudovirus neutralization IC50 [7]: > 10 µg/mL

B3: BD56-1700 (protein)
chain 1: EVQLVESGGGLVQPGGSLRLSCAASGFTFSDYDMHWLRQGTGKGLEWVSTIGTGGDTYYSGSVKGRFSMSRENAKNSLYLQMNSLRAGDTAVYYCARVKYDSSGYKWHLDYWGQGTLVSVSS
chain 2: DIQMTQSPSSLSASLGDRVTITCRASQSISRYLNWYQQKPGKGPNLLIYDASSLQRGVPSRFSGSGSGTDFTLTISSLQPEDFATYYCQQSYTNPLYTFGQGTKLEIK
- pseudovirus neutralization IC50 [1]: > 10 µg/mL
- pseudovirus neutralization IC50 [2]: > 10 µg/mL
- pseudovirus neutralization IC50 [3]: > 10 µg/mL
- pseudovirus neutralization IC50 [4]: > 10 µg/mL
- pseudovirus neutralization IC50 [5]: > 10 µg/mL
- pseudovirus neutralization IC50 [6]: > 10 µg/mL
- pseudovirus neutralization IC50 [7]: > 10 µg/mL

B4: BD56-1689 (protein)
chain 1: QVQLVQSGPEVKKPGASVKVSCKASGYTFITYGINWVRQAPGQGLEWMGWINPYSGNTNYAQKVQGRVTMTTDTSTNTAYMEMRSLRYDDTAVYFCARASGYTGYGSNWYFHLWGRGTLVTVSS
chain 2: QSVLTQPPSVSGAPGQRVTISCTGSSSNIGAGYDVHWYQQLPGTAPKLLIYANSDRPSGVPDRFSGSKSGTSASLAITGLQTEDEADYYCQSYDSSLSGSVFGGGTKLTVL
- pseudovirus neutralization IC50 [1]: 1.28 µg/mL
- pseudovirus neutralization IC50 [2]: 1.11 µg/mL
- pseudovirus neutralization IC50 [3]: 1.62 µg/mL
- pseudovirus neutralization IC50 [4]: > 10 µg/mL
- pseudovirus neutralization IC50 [5]: > 10 µg/mL
- pseudovirus neutralization IC50 [6]: > 10 µg/mL
- pseudovirus neutralization IC50 [7]: 0.74 µg/mL

B5: BD56-1687 (protein)
chain 1: EAQLVESGGGLVQPGRSLRLSCTASGFTFGDYAMQWVRQAPGKGLEWVSGISWDSATIGYADSVKARFTISRDNAKNSLNLQMNSLTTEDTAFYYCARVYCGDNCYSIIWAGDAFDIWGQGTMVTVSA
chain 2: QSVLTQPPSVSGAPGQRVTISCTGTSSNIGTIYDVHWYQQVPGTAPKLLIYGDNNRPSGVPDRFSGSKSGTSASLAIAGLQAEDEANYYCQSYDTSLSGVVFGGGTKLTVL
- pseudovirus neutralization IC50 [1]: 0.82 µg/mL
- pseudovirus neutralization IC50 [2]: 0.66 µg/mL
- pseudovirus neutralization IC50 [3]: 1.58 µg/mL
- pseudovirus neutralization IC50 [4]: 1.71 µg/mL
- pseudovirus neutralization IC50 [5]: 1.76 µg/mL
- pseudovirus neutralization IC50 [6]: 2.4 µg/mL
- pseudovirus neutralization IC50 [7]: 0.224 µg/mL

B6: BD56-1685 (protein)
chain 1: QVQLVQSGAEVKKPGSSVKVSCKASGVTSSTYAIIWVRQAPGQGLEWMGRIIPLLGIATYAQKFQGRVAITADESTSTAYMELSSLRSDDTAVYYCVCGDYGSSWFFDLWGRGTLVTVSS
chain 2: DIVMTQTPLSLSVTPGQPASISCKSSQSLLHTDGKTYLYWYLQKPGQSPQLLIYQVSSRFSGVPDRFSGSGSGTDFTLKISRVEAEDVGVYYCMQGIHLPWTFGQGTKVDIK
- pseudovirus neutralization IC50 [1]: > 10 µg/mL
- pseudovirus neutralization IC50 [2]: > 10 µg/mL
- pseudovirus neutralization IC50 [3]: > 10 µg/mL
- pseudovirus neutralization IC50 [4]: > 10 µg/mL
- pseudovirus neutralization IC50 [5]: > 10 µg/mL
- pseudovirus neutralization IC50 [6]: > 10 µg/mL
- pseudovirus neutralization IC50 [7]: > 10 µg/mL

B7: BD56-1681 (protein)
chain 1: EVQLVETGGGLVQPGGSLRFSCTASGFSFSTYDMHWVRQPTGKGLEWVSAIGTAGDTYYAASVKGRFTISRENAKNSLYLQMNSLRPGDTAVYYCARGGSATYLTAGYFDIWGRGTLVTVSS
chain 2: EIVMTQSPATLSVSPGERATLSCRASQSVRSNLAWYQQKPGQAPRLLIYGASARATGIPARFSGSGSGTEFTLTISSLQSEDSAVYYCQQYHVWPPETLGQGTKVEIK
- pseudovirus neutralization IC50 [1]: > 10 µg/mL
- pseudovirus neutralization IC50 [2]: > 10 µg/mL
- pseudovirus neutralization IC50 [3]: > 10 µg/mL
- pseudovirus neutralization IC50 [4]: > 10 µg/mL
- pseudovirus neutralization IC50 [5]: > 10 µg/mL
- pseudovirus neutralization IC50 [6]: > 10 µg/mL
- pseudovirus neutralization IC50 [7]: > 10 µg/mL

B8: BD56-1679 (protein)
chain 1: QVQLVESGGGVVQPGRSLRLSCAASGFTFSSYAIHWVRQAPGKGLEWVAVISNDGSNKYYADSVKGRFTISRDNSKNMSEMQMNSLRTEDTAVYYCARGKILESFPLTDYYYYYGMDVWGQGTTVTVSS
chain 2: AIQLTQSPSSLSASVGDRLTITCRASQGFGSALAWYQQKAGKAPRLLIYDASTLESGVPSRFSGSGSGTDFTLTISSLQPEDFATYYCQQFTHYPLTFGGGTKLEIK
- pseudovirus neutralization IC50 [1]: 0.00481 µg/mL
- pseudovirus neutralization IC50 [2]: 0.00314 µg/mL
- pseudovirus neutralization IC50 [3]: 0.0536 µg/mL
- pseudovirus neutralization IC50 [4]: > 10 µg/mL
- pseudovirus neutralization IC50 [5]: > 10 µg/mL
- pseudovirus neutralization IC50 [6]: > 10 µg/mL
- pseudovirus neutralization IC50 [7]: 0.0666 µg/mL

B9: BD56-1705 (protein)
chain 1: QIQLVQSGAEVKKPGASVKVSCKASGYIFVSYGLHWVRQAPGQGLEWMGWISPYNGDTNYVQKLQGRVTMTTDTSTSTAYMELRSLRSDDTAVYYCAIRPGYTSSWYDAFEIWGQGTLVTVSS
chain 2: DIQLTQSPSFLSASVGDRVTITCRASQGISSFLAWYQQKPGKAPKLLIYAASTLQSGVPSRFSGSGSGTEFTLTISSLQPEDFATYYCQQLNSYPFTFGPGTKVDIK
- pseudovirus neutralization IC50 [1]: 0.667 µg/mL
- pseudovirus neutralization IC50 [2]: 0.385 µg/mL
- pseudovirus neutralization IC50 [3]: 0.671 µg/mL
- pseudovirus neutralization IC50 [4]: > 10 µg/mL
- pseudovirus neutralization IC50 [5]: > 10 µg/mL
- pseudovirus neutralization IC50 [6]: > 10 µg/mL
- pseudovirus neutralization IC50 [7]: > 10 µg/mL

B10: BD56-1675 (protein)
chain 1: QVQLVQSGAEVKTPGSSVKVSCKASGGTFSSYSVSWVRQAPGQGLEWMAKIIPMLDIADSAQRFQGRVTLTADKSTSTAYMELSSLRSEDTAVYYCAREVGYSGYGSNWYFDVWGRGTLVTVSS
chain 2: QSVLTQPPSVSGAPGQRVTISCTGTNSNIGAGYDVHWYQQLPGTAPKLLIYGNINRPSGVPDRFSGSKSDTSASLAITGLQAEDEADYYCQSYDSSLTIFGGGTKLTVL
- pseudovirus neutralization IC50 [1]: 0.0671 µg/mL
- pseudovirus neutralization IC50 [2]: 0.034 µg/mL
- pseudovirus neutralization IC50 [3]: 0.039 µg/mL
- pseudovirus neutralization IC50 [4]: 0.52 µg/mL
- pseudovirus neutralization IC50 [5]: 2.63 µg/mL
- pseudovirus neutralization IC50 [6]: 1.99 µg/mL
- pseudovirus neutralization IC50 [7]: 0.203 µg/mL

B11: BD56-1684 (protein)
chain 1: EVQLVESGGGLVQPGGSLRLSCAASDFIVSSNYMSWVRQAPGKGLEWVSVIYPGGSTFYADSVKGRFTISRHNSKNTLYLQMNSLRAEDTAVYYCARDYGDFYFDNWGQGTLVTVSS
chain 2: EIVLTQSPGTLSLSPGERATLSCRASQSISTTYLAWYQQKPGQAPRLLIYDVSSRATGIPDRFSGSGSGTDFTLTISGLEPEDFAVYYCQQYGSSPRTFGPGTKVEIK
- pseudovirus neutralization IC50 [1]: 0.072 µg/mL
- pseudovirus neutralization IC50 [2]: 0.0851 µg/mL
- pseudovirus neutralization IC50 [3]: > 10 µg/mL
- pseudovirus neutralization IC50 [4]: 0.275 µg/mL
- pseudovirus neutralization IC50 [5]: > 10 µg/mL
- pseudovirus neutralization IC50 [6]: > 10 µg/mL
- pseudovirus neutralization IC50 [7]: 0.0116 µg/mL

B12: BD56-1686 (protein)
chain 1: EVQLVESGGGLVQPGGSLRLSCAASGFTFSNYDMHWVRQVTGKGLEWVSGIGTTGDTYYPGSVKGRFTISRENAKNSLYLQMDSLRAGDTAVYYCARVSYYYDTSGYYYTYWYFDLWGRGTLVTVSS
chain 2: DIQMTPSPSSLSASLGDRVTITCRASQNIGSYLNWYQQKPGKAPKLLIYAAFSLQSGVPSRFSGSRFGTDFTLTISSLQPEDFATYYCQQSYSAPPWTFGQGTKVEIK
- pseudovirus neutralization IC50 [1]: > 10 µg/mL
- pseudovirus neutralization IC50 [2]: > 10 µg/mL
- pseudovirus neutralization IC50 [3]: > 10 µg/mL
- pseudovirus neutralization IC50 [4]: > 10 µg/mL
- pseudovirus neutralization IC50 [5]: > 10 µg/mL
- pseudovirus neutralization IC50 [6]: > 10 µg/mL
- pseudovirus neutralization IC50 [7]: > 10 µg/mL
